A mixed list of measured activities; the numbers were collected in NIAID ChemDB.

Shared fields: tests in culture; agent: Candida albicans; read-out: MFC

Blank or dashed fields: not listed here.

smiles,strain or isolate,value
Fc1ccc(CN(Cc2ccc(-c3ccccc3)cc2)n2ccnc2)cc1,-,200 µM
NCCNC(=O)C1=Nc2ccc(NC(=O)C3=Nc4ccc(C(=O)Nc5ccc6[nH]c(C(=O)NCCN)cc6c5)cc4C3)cc2C1,-,4 µg/mL
C[C@@H]1Oc2ccccc2/C(=N/OCc2ccc(Cl)cc2Cl)[C@H]1n1cncn1,ATCC 10231,>64 µg/mL
Cc1ccnc(C(N)=Nc2ccc(-c3ccc(-c4ccc(N=C(N)c5cc(C)ccn5)cc4C)o3)c(C)c2)c1,-,10 µg/mL
CCCCCCCCSc1cc(C(N)=S)ccn1,42,>200 µg/mL
c1cc2nc(CCCCc3nc4ccc(C5=NCCN5)cc4[nH]3)[nH]c2cc1C1=NCCN1,A39,>100 µg/mL
FC(F)(F)c1ccc(OC(CCn2ccnc2)c2ccccc2)cc1,20 strains,76.8 µg/mL
Clc1ccc(CO/N=C2\c3ccccc3OCC2n2cncn2)cc1Cl,ATCC 10231,>64 µg/mL
CSc1cc(C(N)=S)ccn1,176,>200 µg/mL
CCC(C)CC(C)CCCCCCCCC(=O)N[C@H]1C[C@@H](O)[C@@H](O)NC(=O)[C@@H]2[C@@H](O)CCN2C(=O)[C@H]([C@H](O)CCN(CC#N)CC#N)NC(=O)[C@H]([C@H](O)Cc2ccc(O)cc2)NC(=O)[C@@H]2C[C@@H](O)CN2C(=O)[C@H]([C@@H](C)O)NC1=O,MY1055,4 µg/mL
COc1ccccc1CC(Cc1ccc(-c2ccccc2)cc1)n1ccnc1,-,19 µM
Clc1ccc(C(CCn2ccnc2)Oc2ccc(Cl)cc2Cl)cc1,20 strains,3.62 µg/mL
Clc1ccccc1C(c1ccccc1)(c1ccccc1)n1ccnc1,ATCC 10231,20 µg/mL
c1ccc(CO/N=C2/c3ccccc3OCC2n2cncn2)cc1,ATCC 10231,>64 µg/mL
COC1CC2CCC(C)C(O)(O2)C(=O)C(=O)N2CCCCC2C(=O)OC(C(C)CC2CCC(O)C(OC)C2)CC(=O)C(C)/C=C(\C)C(O)[C@@](OC)(N(O)C(=O)OCC(C)C)C(=O)C(C)CC(C)/C=C/C=C/C=C/1C,RBP1/RBP1,>100 µg/mL
CCC(C)CC(C)CCCCCCCCC(=O)NC1CCCNC(=O)[C@@H]2[C@@H](O)[C@@H](C)CN2C(=O)[C@H]([C@H](O)CC(N)=O)NC(=O)[C@H](C(O)[C@H](O)c2ccc(O)cc2)NC(=O)[C@@H]2C[C@@H](O)CN2C(=O)[C@H]([C@@H](C)O)NC1=O,MY1055,2 µg/mL
NC=Nc1ccc(SCc2cc(Br)cc(Br)c2)cc1,SC5314,>100 µM
C[C@@H]1Oc2cc(Cl)ccc2/C(=N/OCc2ccc(Cl)cc2Cl)[C@H]1[n+]1cnc[nH]1,ATCC 10231,>64 µg/mL
Clc1ccc(CO/N=C2/c3ccccc3OCC2n2cncn2)cc1,ATCC 10231,>64 µg/mL
COC1CC2CCC(C)C(O)(O2)C(=O)C(=O)N2CCCCC2C(=O)OC(C(C)CC2CCC(O)C(OC)C2)CC(=O)C(C)/C=C(\C)[C@@](O)(c2ccc(C)s2)C(OC)C(=O)C(C)CC(C)/C=C/C=C/C=C/1C,RBP1/RBP1,>100 µg/mL
Clc1ccc(C(Cn2ccnc2)OCc2csc3c(Cl)cccc23)c(Cl)c1,15 strains,16 µg/mL
C[C@@H]1Oc2ccccc2/C(=N/OCc2cccc(F)c2)[C@H]1n1ccnc1,ATCC 10231,>64 µg/mL
CCCSc1cc(C(N)=S)ccn1,176,200 µg/mL
Fc1ccc(C(CCn2ccnc2)Oc2ccc(Cl)cc2Cl)cc1,20 strains,6.25 µg/mL
CC(C)N=C(N)c1ccc2nc(-c3ccc4c(c3)Cc3cc(-c5nc6ccc(C(N)=NC(C)C)cc6[nH]5)ccc3-4)[nH]c2c1,Isolate CA1247,3.12 µg/mL
N=C(N)c1ccc(OCCCC(O)COc2ccc(C(=N)N)cc2)cc1,103.96,12.5 µg/mL
O=[N+]([O-])c1ccc(OC(CCn2ccnc2)c2ccccc2)cc1,20 strains,67.2 µg/mL
CCCCCCCCCCCCCCCCOP(=O)([O-])OCC[N+](C)(C)C,-,4 µg/mL
O=[N+]([O-])c1cccc(/C=N/Nc2ccnc3cc(Cl)ccc23)c1,-,>200 µg/mL
C[C@@H]1Oc2ccccc2/C(=N/OCc2ccc(Cl)cc2)[C@H]1n1ccnc1,ATCC 10231,16 µg/mL
N#Cc1ccc(/C=N/Nc2ccnc3cc(Cl)ccc23)cc1,-,>200 µg/mL
C[C@@H]1Oc2ccccc2/C(=N/OCc2ccc(Cl)cc2Cl)[C@H]1[n+]1cnc[nH]1,ATCC 10231,>64 µg/mL
COc1c(O)c2c(=O)cc(OC)c3c4c(OC)cc(=O)c5c(O)c(OC)c6c(c(c1CC(C)(O)C6C(C)=O)c23)c54,-,1.41 µg/mL
CCC(C)CC(C)CCCCCCCCC(=O)N[C@H]1C[C@@H](O)[C@@H](O)NC(=O)[C@@H]2[C@@H](O)CCN2C(=O)[C@H]([C@H](O)CC#N)NC(=O)[C@H]([C@H](O)Cc2ccc(O)cc2)NC(=O)[C@@H]2C[C@@H](O)CN2C(=O)[C@H]([C@@H](C)O)NC1=O,MY1055,2 µg/mL
Clc1ccc(CC(Cc2ccc(-c3ccccc3)cc2)n2ccnc2)cc1,-,33 µM
CCC(C)CC(C)CCCCCCCCC(=O)N[C@H]1C[C@H](O)[C@@H](O)NC(=O)[C@@H]2[C@@H](O)[C@@H](O)CN2C(=O)[C@H]([C@H](O)CC(N)=O)NC(=O)[C@H](C(O)[C@H](O)c2ccc(O)cc2)NC(=O)[C@@H]2C[C@@H](O)CN2C(=O)[C@H]([C@@H](C)O)NC1=O,MY1055,1 µg/mL
C[C@@H]1CCC2(OC1)OC1CC3C4C[C@H](OC5O[C@@H](CO)[C@H](O)[C@@H](O)[C@@H]5O)[C@H]5C[C@@H](OC6O[C@H](CO)[C@@H](O)[C@H](O)[C@H]6O)CC[C@]5(C)C4CC[C@]3(C)C1[C@@H]2C,ATCC 90028,20 µg/mL
OC(Cn1cncn1)(Cn1cncn1)c1ccc(F)cc1F,3028,>100 µg/mL
CC1=C2[C@@H](OC(=O)/C=C/c3ccccc3)[C@H](C(C)C)CC[C@]2(C)[C@@H](O)CC1=O,ATCC 10231,32 µg/mL
N=C(N)c1ccc2nc(CCCc3nc4ccc(C(=N)N)cc4[nH]3)[nH]c2c1,A39,>100 µg/mL
Fc1cccc(/C=N/Nc2ccnc3cc(Cl)ccc23)c1,-,>200 µg/mL
CN[C@@H]1[C@H](O[C@@H]2OC[C@@H](O)[C@H](O)[C@H]2O)[C@@H](O)[C@H](O[C@H]2c3cc(C)c(C(=O)N[C@H](C)C(=O)O)c(O)c3-c3c(cc4c(c3O)C(=O)c3cc(OC)cc(O)c3C4=O)[C@@H]2O)O[C@@H]1C,A9540,10 µg/mL
CC(C)(C)c1ccc(CC(Cc2ccc(-c3ccccc3)cc2)n2ccnc2)cc1,-,>100 µM
CCCCCOc1ccc(-c2ccc(-c3ccc(C(=O)N[C@H]4C[C@@H](O)[C@@H](O)NC(=O)[C@@H]5[C@@H](O)[C@@H](C)CN5C(=O)[C@H]([C@H](C)O)NC(=O)[C@H]([C@H](O)[C@@H](O)c5ccc(O)cc5)NC(=O)[C@@H]5C[C@@H](O)CN5C(=O)[C@H]([C@H](C)O)NC4=O)cc3)cc2)cc1,94-93,2 µg/mL
C[C@@H]1Oc2cc(Cl)ccc2/C(=N/OCc2ccc(Cl)cc2Cl)[C@H]1n1ccnc1,ATCC 10231,>64 µg/mL
CC(=O)N1CCN(c2ccc(OC[C@H]3CO[C@](Cn4ccnc4)(c4ccc(Cl)cc4Cl)O3)cc2)CC1,ATCC 10231,20 µg/mL
CCC(C)CC(C)CCCCCCCCC(=O)NC1C[C@H](O)[C@@H](O)NC(=O)[C@@H]2[C@@H](O)[C@@H](C)CN2C(=O)[C@H]([C@H](O)CC(N)=O)NC(=O)[C@H](C(O)[C@H](O)c2ccc(O)cc2)NC(=O)[C@@H]2C[C@@H](O)CN2C(=O)[C@H]([C@@H](C)O)NC1=O,MY1750,0.125 µg/mL
c1ccc(CN(Cc2ccc(-c3ccccc3)cc2)n2ccnc2)cc1,-,200 µM
Fc1ccc(CO/N=C2/c3ccccc3OCC2n2cncn2)cc1,ATCC 10231,>64 µg/mL
COC(/C=C/c1ccccc1)=C1/C(=O)C=C(C)C1=O,ATCC 90028,1.56 µg/mL
Clc1ccc(CN(Cc2ccc(-c3ccccc3)cc2)n2ccnc2)cc1,-,200 µM
N=C(N)c1ccc2nc(-c3cccc(-c4nc5ccc(C(=N)N)cc5[nH]4)n3)[nH]c2c1,A39,>100 µg/mL
NC=Nc1ccc(SCc2ccc(Cl)cc2)cc1,SC5314,50 µM
C[C@@H]1Oc2ccccc2/C(=N/OCc2c(Cl)cccc2Cl)[C@H]1n1ccnc1,ATCC 10231,>64 µg/mL

3 of the rows above, restated:

| smiles | strain or isolate | value |
|---|---|---|
| N=C(N)c1ccc(OCCCC(O)COc2ccc(C(=N)N)cc2)cc1 | 103.96 | 12.5 µg/mL |
| C[C@@H]1Oc2cc(Cl)ccc2/C(=N/OCc2ccc(Cl)cc2Cl)[C@H]1[n+]1cnc[nH]1 | ATCC 10231 | >64 µg/mL |
| CC(C)N=C(N)c1ccc2nc(-c3ccc4c(c3)Cc3cc(-c5nc6ccc(C(N)=NC(C)C)cc6[nH]5)ccc3-4)[nH]c2c1 | Isolate CA1247 | 3.12 µg/mL |

Rows are shuffled and stem from different studies.